Pooled drug test results. Numbers come from NIAID ChemDB, via PubChem.

All rows: target-level tests; organism: HIV-1; protein: Reverse transcriptase; endpoint: IC50

ICn: concentration for n% inhibition.

{"compound": "C[C@@H](CNC(=S)Nc1ccccn1)c1ccccc1", "result": "8.4 µM"}
{"compound": "c1ccc(C2SCc3nc4ccccc4n32)cc1", "mutations": "RT-Y181I", "result": ">50 µM"}
{"compound": "CCC(NC(=S)Nc1ccc(Br)cn1)c1ccccc1", "result": "5.4 µM"}
{"compound": "O=C(OCC(OC(=O)c1ccc(O)cc1)C(OC(=O)c1ccc(O)cc1)C(COC(=O)c1ccc(O)cc1)OC(=O)c1ccc(O)cc1)c1ccc(O)cc1", "read by": "nucleotide incorporation", "result": "~12 µM"}
{"compound": "O=[N+]([O-])c1ccc2c(c1)nc(-c1c(F)cccc1F)n2Cc1c(F)cccc1F", "result": ">10 µM"}
{"compound": "CCCc1cccnc1N(C)C1CCN(C(=O)c2cc3cc(NS(C)(=O)=O)ccc3[nH]2)CC1", "strain or isolate": "IIIB", "mutations": "RT-Y181C", "read by": "nucleotide incorporation", "result": ">1 µM"}
{"compound": "COC(=O)[C@H]1CC[C@@H](c2ccc[n+](C)c2)N1", "read by": "RT activity / radiometric", "result": ">500 µM"}
{"compound": "C[C@@H](CNC(=S)Nc1ccc(Br)cn1)C1CCCCC1", "result": "1.2 µM"}
{"compound": "O=c1[nH]cnc2c1ncn2[C@H]1CC[C@@H](CO)O1", "strain or isolate": "WT", "read by": "RT activity", "result": "0.2 µM"}
{"compound": "Cc1cc(C)nc(NC(=S)N[C@H](C)c2cccc3ccccc23)c1", "result": "40 µM"}
{"compound": "Cc1ccc2c(c1)nc(-c1c(F)cccc1F)n2Cc1c(F)cccc1F", "result": ">10 µM"}
{"compound": "Cc1cccc2sc(NC(=S)NC[C@H](C)c3ccccc3)nc12", "result": ">100 µM"}
{"compound": "CO[C@@H]1C=C2C3CC[C@H]([C@H](C)/C=C/C(C)C(C)C)[C@@]3(C)CCC2[C@@]2(C)CC[C@H](O)C[C@]12O", "read by": "RT activity", "result": ">250 µM"}
{"compound": "CCOC(=O)Cc1csc(NC(=S)NC[C@H](C)c2ccccc2)n1", "result": ">100 µM"}
{"compound": "C[C@H](CC(=O)C[C@@H](C)[C@H]1CC(=O)[C@@]2(C)C3=C(C(=O)C[C@]12C)[C@@]1(C)CC[C@H](O)C(C)(C)[C@@H]1C[C@@H]3O)C(=O)O", "read by": "RT activity", "result": ">250 µM"}
{"compound": "CCOC(=O)Cc1csc(NC(=S)NC(CC)c2ccccc2)n1", "result": "17.5 µM"}
{"compound": "CC(=O)c1ccc(C)cc1NC(C(N)=O)c1c(Cl)cccc1Cl", "read by": "nucleotide incorporation", "result": "0.35 µg/mL"}
{"compound": "CCc1c(Sc2ccccn2)n(COCc2ccccc2)c(=O)[nH]c1=O", "mutations": "RT-K103N", "result": "20 µM"}
{"compound": "CC(=O)c1ccc(C)cc1NC(C(N)=O)c1c(Cl)cccc1Cl", "strain or isolate": "IIIB", "read by": "nucleotide incorporation", "result": "0.3 µM"}
{"compound": "O=C(OC[C@H](OC(=O)c1ccc(O)cc1)[C@@H](COC(=O)c1ccc(O)cc1)OC(=O)c1ccc(O)cc1)c1ccc(O)cc1", "read by": "nucleotide incorporation", "result": "~12 µM"}
{"compound": "Cc1cccc2c1ncn2Cc1c(F)cccc1F", "result": ">10 µM"}
{"compound": "C[C@@H](NC(=S)Nc1nc2ccccc2s1)c1cccc2ccccc12", "result": "0.44 µM"}
{"compound": "C=CC1=C(N)C2(OS1(=O)=O)[C@@H](CO[Si](C)(C)C(C)(C)C)O[C@@H](n1cc(C)c(=O)[nH]c1=O)[C@@H]2O[Si](C)(C)C(C)(C)C", "mutations": "RT-E138K", "read by": "nucleotide incorporation", "result": ">500 µM"}
{"compound": "Cc1cccc2c1nc(C=O)n2Cc1c(F)cccc1F", "result": ">10 µM"}
{"compound": "COC(=O)C(Cc1ccccc1)NC(=O)[C@@H](NC(=O)[C@@H](C[C@H](O)[C@H](CC1CCCCC1)NC(=O)[C@@H](NC(=O)[C@H](Cc1ccccc1)CS(=O)(=O)C(C)(C)C)C(C)C)C(C)C)C(C)C", "strain or isolate": "IIIB", "read by": "nucleotide incorporation", "result": "0.3 µM"}
{"compound": "CC(C)[C@@H](C)/C=C/[C@@H](C)[C@H]1CCC2[C@@]34C=C[C@]5(C[C@@H](O)CC[C@]5(C)C3CC[C@@]21C)OO4", "read by": "RT activity", "result": ">250 µM"}
{"compound": "Fc1cccc(F)c1COCc1nc2ccccc2n1Cc1c(F)cccc1F", "result": ">10 µM"}
{"compound": "CCCN(C)c1nc([C@@H](C)c2c(F)cccc2F)c(C)c(=O)[nH]1", "mutations": "Y188L", "read by": "RT activity", "result": ">20 µM"}
{"compound": "COC(=O)/C=C/C1=C(N)C2(OS1(=O)=O)[C@@H](CO[Si](C)(C)C(C)(C)C)O[C@@H](n1cc(C)c(=O)[nH]c1=O)[C@@H]2O[Si](C)(C)C(C)(C)C", "mutations": "RT-E138K", "read by": "nucleotide incorporation", "result": ">500 µM"}
{"compound": "CCOc1ccc(N2CC(O)Cn3c2nc2c3c(=O)n(CC(N)=O)c(=O)n2C)cc1", "read by": "nucleotide incorporation / absorbance", "result": ">100 µM"}
{"compound": "C[C@H](CCC=C(CO)CO)[C@H]1CC[C@@]2(C)C3=CC[C@H]4C(C)(C)C(=O)CC[C@]4(C)C3=CC[C@]12C", "read by": "RT activity", "result": ">250 µM"}
{"compound": "Cc1cn([C@@H]2O[C@H](CO[Si](C)(C)C(C)(C)C)C3(OS(=O)(=O)C(/C=C/CO)=C3N)[C@H]2O[Si](C)(C)C(C)(C)C)c(=O)n(C)c1=O", "mutations": "RT-E138K", "read by": "nucleotide incorporation", "result": ">500 µM"}
{"compound": "C[C@H](CC(=O)C[C@@H](C)[C@H]1C[C@H](O)[C@@]2(C)C3=C(C(=O)C[C@]12C)[C@@]1(C)CCC(=O)C(C)(C)[C@@H]1C[C@@H]3O)C(=O)O", "read by": "RT activity", "result": ">250 µM"}
{"compound": "Fc1cccc(F)c1Cn1c(-c2c(F)cccc2F)nc2ccccc21", "result": "~10 µM"}

Repeating the first 4 entries:

compound	strain or isolate	mutations	read by	result
C[C@@H](CNC(=S)Nc1ccccn1)c1ccccc1				8.4 µM
c1ccc(C2SCc3nc4ccccc4n32)cc1		RT-Y181I		>50 µM
CCC(NC(=S)Nc1ccc(Br)cn1)c1ccccc1				5.4 µM
O=C(OCC(OC(=O)c1ccc(O)cc1)C(OC(=O)c1ccc(O)cc1)C(COC(=O)c1ccc(O)cc1)OC(=O)c1ccc(O)cc1)c1ccc(O)cc1			nucleotide incorporation	~12 µM

An empty or dashed field is not shown. Rows are shuffled and stem from different studies.